# Results: patent US5869457A, “Modified proteins and their use for controlling viral infections” (Rijksuniversiteit Te Groningen, priority 1991, dated 1999)
# Legend:
# HIV-1 (strain HTLV-IIIB) = assay: anti-HIV-1 test: inhibition of virus-induced cytopathogenicity in MT-4 cells (MTT method); assay type: cell-based
# Polio = assay type: cell-based, polio virus
# [1] = human pharmacokinetics, antiviral concentrations (expected); assay type: in vivo; settings: intravenous, 1.5-15 mg/kg per day
# HIV-2 (LAV-2ROD) = assay: anti-HIV-2 test (identical to the anti-HIV-1 test); assay type: cell-based
# influenza = influenza virus: fusion of viral membrane with erythrocyte ghosts, liposomes and cells (R15 dequenching); assay type: biochemical
substance,measurement,setting,value
"Aco-HSA: reaction product of human serum albumin and aconitic anhydride (anhydride of cis- or trans-prop-1-ene-1,2,3-tri-carboxylic acid)","Inhibitory effect (IC50 μg/ml) on retroviruses, HIV-1","HIV-1 (strain HTLV-IIIB); HIV-1, Table 1",0.025 µg/mL
same,"IC50, anti-HIV activity","HIV-1 (strain HTLV-IIIB); antiviral assay, HIV-1, MT-4 cells",0.0056 µg/mL
same,times more active than AZT (anti-HIV),HIV-1 (strain HTLV-IIIB); versus AZT,approximately 25 times
same,times more active than Suc-HSA (anti-HIV),HIV-1 (strain HTLV-IIIB); versus Suc-HSA,175 times
same,"Inhibitory effect (IC50 μg/ml) on the replication of RNA viruses, Polio",Polio,> 400 µg/mL
same,antiviral concentrations in blood stream and lymphatic system of AIDS patients,[1],long lasting antiviral concentrations will be attained
same,"Inhibitory effect (IC50 μg/ml) on retroviruses, HIV-2",HIV-2 (LAV-2ROD),5.9 µg/mL
same,"Inhibitory effect (IC50 μg/ml) on the replication of RNA viruses, influenza",influenza,0.8 µg/mL
